Results on 94 compounds are retold here after PubChem BioAssay AID588335 (The Scripps Research Institute Molecular Screening Center, 2011).

The entries are a selection whose mix differs from that of the whole data set. Some salts or complexes appear as unconnected parts, following the source record. Calls of active or inactive are those of the source. Rule as the data show it: active = inhibition above about 30%; inactive = the rest.

This test in a line: inhibition of GDH and TPI enzymes – biochemical, absorbance, full deck, artefact control for M. tuberculosis FBA inhibitor project, primary screen (AID 588335).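 Also: 0% = DMSO wells and 100% = wells lacking the enzyme.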 Conditions: GDH-TPI coupled enzyme counterscreen, NADH absorbance; at 4.8 µM; hits give high values.
Usually inhibition stands for the change of the read-out against control, counted positive when it falls. For `CP(=O)(Nc1ccc(SC(F)(F)F)cc1)Oc1ccccc1` (centres undefined), the inhibition was inactive: -0.74%.

Regarding `CCCOc1ccc(NP(C)(=O)Oc2ccc(Cl)cc2)cc1` (centres undefined), the inhibition was inactive: -0.32%.

For the compound `CN1CCCCC1COC(=O)C1(O)c2ccccc2CCc2ccccc21` (centres undefined), the inhibition was inactive: 11.1%.

Regarding `COc1ccccc1OP(C)(=O)Nc1c(C)cccc1C` (centres undefined), the inhibition is inactive: -1.24%.

For `CCOC(=O)C(CC)C1=NC(C)(C)Cc2ccccc21.O=[N+]([O-])c1cc([N+](=O)[O-])c(O)c([N+](=O)[O-])c1` (centres undefined), the inhibition is active: 44.4%.

Regarding `O=[N+]([O-])c1cc([N+](=O)[O-])c(Nc2nnnn2CCO)c([N+](=O)[O-])c1`, the inhibition was inactive: 6.67%.

For `CC1=C2N=C(C=C3N=C(C(C)=C4[N-][C@@](C)([C@@H]5N=C1[C@](C)(CCC(=O)NC[C@@H](C)OP(=O)([O-])O[C@H]1[C@@H](O)[C@@H](n6cnc7cc(C)c(C)cc76)O[C@@H]1CO)[C@H]5CC(N)=O)[C@@](C)(CC(N)=O)[C@@H]4CCC(N)=O)[C@@](C)(CC(N)=O)[C@@H]3CCC(N)=O)C(C)(C)[C@@H]2CCC(N)=O.[C-]#N.[Co+3]`, the inhibition was inactive: 22.3%.

Turning to `Cc1nc2ccc3ccccc3c2s1.O=[N+]([O-])c1cc([N+](=O)[O-])c(O)c([N+](=O)[O-])c1`, the inhibition was active: 30.7%.

In the case of `O=[N+]([O-])c1cc([N+](=O)[O-])c(-c2cnn(-c3ccccc3)c2)c([N+](=O)[O-])c1`, the inhibition is inactive: -6.13%.

As for `O=[N+]([O-])c1cc([N+](=O)[O-])c(-n2nnc3ccccc32)c([N+](=O)[O-])c1`, the inhibition is inactive: 6.83%.

Take `CP(=O)(Nc1cccc(Br)c1)Oc1ccccc1` (centres undefined): the inhibition was inactive: -7.62%.

For the compound `Cc1cc(C)cc(OP(C)(=O)Nc2ccccn2)c1` (centres undefined), the inhibition is inactive: 1.75%.

Regarding `Cc1ccc(C)c(NP(C)(=O)Oc2ccccc2)c1` (centres undefined), the inhibition was inactive: 11.2%.

Take `Cc1cc(C)cc(OP(C)(=O)Nc2ccc(C)cc2C)c1` (centres undefined): the inhibition was inactive: -5.65%.

As for `CCOC(=O)c1ccc(NP(C)(=O)Oc2cc(C)cc(C)c2)cc1` (centres undefined), the inhibition is inactive: -3.58%.

For `COc1ccccc1OP(C)(=O)Nc1cccc(Br)c1` (centres undefined), the inhibition is inactive: -1.25%.

For the compound `CC1=NCCc2c1[nH]c1ccccc21.O=[N+]([O-])c1cc([N+](=O)[O-])c(O)c([N+](=O)[O-])c1`, the inhibition is inactive: 17.3%.

Regarding `O=C(O)c1cccc(Nc2c([N+](=O)[O-])cc([N+](=O)[O-])cc2[N+](=O)[O-])c1`, the inhibition was active: 35.1%.

As for `COc1ccc(OP(C)(=O)Nc2cccc(F)c2)cc1` (centres undefined), the inhibition is inactive: -1.24%.

As for `COc1ccccc1OP(C)(=O)Nc1cc(Cl)ccc1C` (centres undefined), the inhibition is inactive: 11%.

In the case of `Cc1cc(C)cc(OP(C)(N)=O)c1` (centres undefined), the inhibition is inactive: 12.2%.

`CCOC(=O)c1ccc(NP(C)(=O)Oc2ccccc2)cc1` (centres undefined): the inhibition was inactive: 8.82%.

Consider `Cc1ccc(NP(C)(=O)Oc2ccccc2)c(C)c1` (centres undefined), for which the inhibition was inactive: -3.8%.

For `COc1ccccc1OP(C)(=O)Nc1ccc(C)cc1` (centres undefined), the inhibition was inactive: 6.38%.

On to `Cc1cccc(C)c1OP(C)(N)=O` (centres undefined), for which the inhibition was inactive: 1.55%.

Take `CC(C)(C)c1ccc(OP(C)(=O)Nc2ccc(SC(F)(F)F)cc2)cc1` (centres undefined): the inhibition is inactive: 7.89%.

For `O=[N+]([O-])c1ccc2c(c1)C=Nc1ccccc1O2`, the inhibition is inactive: 16.9%.

Consider `O=[N+]([O-])c1cc([N+](=O)[O-])c(Nc2cccnc2)c([N+](=O)[O-])c1`, for which the inhibition is inactive: 20.5%.

As to `CCN(CC)CCCOC(=O)C(O)(c1ccccc1)c1ccccc1`, the inhibition was inactive: 2.84%.

Turning to `CP(=O)(Nc1ccccn1)Oc1ccc(Cl)cc1` (centres undefined), the inhibition is inactive: -0.35%.

Turning to `CCOP(C)(=S)SCC(=O)NC(C)C(=O)O` (centres undefined), the inhibition is inactive: 8.4%.

Consider `O=[N+]([O-])c1cc([N+](=O)[O-])c(O)c([N+](=O)[O-])c1.c1ccc(Oc2ccncc2)cc1`, for which the inhibition was inactive: 12.3%.

Take `CCOC(=O)c1ccc(NP(C)(=O)Oc2ccc(OC)cc2)cc1` (centres undefined): the inhibition is inactive: -7.04%.

`Cc1cc(C)cc(OP(C)(=O)Nc2ccc(SC(F)(F)F)cc2)c1` (centres undefined): the inhibition is inactive: 2.56%.

As for `CCc1ccc(OP(C)(=O)N2CCN(c3ccc([N+](=O)[O-])cc3)CC2)cc1` (centres undefined), the inhibition was inactive: 5.36%.

Take `CP(=O)(NC(=O)Nc1ccccc1)Oc1ccccc1` (centres undefined): the inhibition was inactive: 6.56%.

On to `CP(=O)(Oc1ccccc1)OC(c1ccccc1)C(F)(F)F` (centres undefined), for which the inhibition is inactive: 0.63%.

As for `CP(=O)(Nc1ccc(SC(F)(F)F)cc1)Oc1ccc(Cl)cc1` (centres undefined), the inhibition was inactive: -5.9%.

As for `Cc1cccc(C)c1OP(C)(=O)Nc1ccc(SC(F)(F)F)cc1` (centres undefined), the inhibition was inactive: 2.95%.

Regarding `Cc1ccc(Nc2c([N+](=O)[O-])cc([N+](=O)[O-])cc2[N+](=O)[O-])cc1`, the inhibition was inactive: 23%.

`COc1ccccc1OP(C)(=O)Nc1ccccc1` (centres undefined): the inhibition is inactive: -1.6%.

Take `CP(=O)(Nc1ccccc1Br)Oc1ccccc1` (centres undefined): the inhibition was inactive: -1.81%.

As for `CP(=S)(Nn1cnnc1)Oc1ccccc1` (centres undefined), the inhibition is inactive: 5.04%.

On to `CP(=O)(OC12CC3CC(CC(C3)C1)C2)OC12CC3CC(CC(C3)C1)C2`, for which the inhibition is inactive: -11.8%.

On to `CCOC(=O)c1ccc(NP(C)(=O)Oc2ccc(Cl)cc2)cc1` (centres undefined), for which the inhibition is inactive: -1.45%.

With `CN(C)C(=O)c1c([N+](=O)[O-])cc([N+](=O)[O-])cc1[N+](=O)[O-]`, the inhibition is inactive: 4.79%.

As to `CP(=O)(Nc1ccc(Cl)cc1)Oc1ccc(F)cc1` (centres undefined), the inhibition is inactive: 2.12%.

Take `CC(C)(C)c1ccc(OP(C)(=O)O)cc1`: the inhibition was inactive: 1.24%.

For the compound `COc1ccccc1OP(C)(=O)Nc1ccccc1Br` (centres undefined), the inhibition was inactive: -1.89%.

`CCc1ccc(OP(C)(=O)Nc2cccnc2)cc1` (centres undefined): the inhibition is inactive: 15.8%.

As for `CP(=O)(Oc1ccccc1)N1CCOC1=O` (centres undefined), the inhibition was inactive: 4.12%.

For `O=C(OCCCN1CCCC1)C(O)(c1ccccc1)C1CCCCC1` (centres undefined), the inhibition was inactive: -0.68%.

For `COc1ccccc1OP(C)(=O)Nc1c(C)n(C)n(-c2ccccc2)c1=O` (centres undefined), the inhibition was inactive: 0%.

Turning to `COc1ccc(OP(C)(=O)Nc2ccc(Br)cc2)cc1` (centres undefined), the inhibition is inactive: 10.5%.

Consider `CCN(CC)CC(O)COC(=O)C(O)(c1ccccc1)C1CCCCC1` (centres undefined), for which the inhibition is inactive: -0.47%.

`CCc1ccc(OP(C)(=O)O)cc1`: the inhibition is inactive: 4.13%.

As to `COc1ccccc1OP(C)(=O)Nc1ccc(C)cc1C` (centres undefined), the inhibition is inactive: 11.6%.

In the case of `CP(=O)(Nc1ccccn1)Oc1ccccc1` (centres undefined), the inhibition is inactive: 9.7%.

As for `O=[N+]([O-])c1cc([N+](=O)[O-])c(Nc2ccccn2)c([N+](=O)[O-])c1`, the inhibition was inactive: -2.24%.

With `Cc1c(NP(C)(=O)Oc2ccc(C(C)C)cc2)c(=O)n(-c2ccccc2)n1C` (centres undefined), the inhibition was inactive: -1.56%.

Take `CN(C)CCOC(=O)C(O)(c1ccccc1)C1CCCC1` (centres undefined): the inhibition is inactive: 1.67%.

`COc1ccc(OP(C)(=O)Nc2ccccn2)cc1` (centres undefined): the inhibition is inactive: 1.85%.

On to `COc1ccccc1OP(C)(=O)Nc1ccc(Br)cc1` (centres undefined), for which the inhibition was inactive: 6.22%.

For the compound `CP(=O)(OCCOc1ccccc1)OCCOc1ccccc1`, the inhibition is inactive: -3.92%.

As for `CP(=O)(Nc1ccc(Cl)cc1Cl)Oc1ccccc1` (centres undefined), the inhibition is inactive: 3.75%.

As for `CCCCCCCCCCCCCCCC1C[N+](C)(C)CCOP(C)(=O)O1` (centres undefined), the inhibition is inactive: 14.7%.

In the case of `COc1ccc(OP(C)(=O)Nc2ccccc2Br)cc1` (centres undefined), the inhibition was inactive: -1.1%.

On to `COc1ccccc1OP(C)(=O)Nc1ccc(C)c(C)c1` (centres undefined), for which the inhibition was inactive: 4.5%.

Take `Cc1cc(C)cc(OP(C)(=O)Nc2cccc(C(F)(F)F)c2)c1` (centres undefined): the inhibition was inactive: 0%.

Take `O=C1C(O)=C([N+](=O)[O-])C(=O)C(O)=C1[N+](=O)[O-]`: the inhibition is inactive: -2.16%.

As for `O=[N+]([O-])c1cc([N+](=O)[O-])c(OC2CCCCC2O)c([N+](=O)[O-])c1` (centres undefined), the inhibition was active: 36.1%.

As for `CCCCCOc1ccc(NP(C)(=O)Oc2ccc(Cl)cc2Cl)cc1` (centres undefined), the inhibition is inactive: -2.07%.

On to `CP(=O)(Nc1ccccc1)Oc1ccc(F)cc1` (centres undefined), for which the inhibition was inactive: 3.53%.

Turning to `CCN(CC)CCCOC(=O)C(O)(c1ccccc1)C1CCCCC1` (centres undefined), the inhibition is inactive: -2.78%.

Consider `Cc1c([N+](=O)[O-])cc([N+](=O)[O-])c(Br)c1[N+](=O)[O-]`, for which the inhibition was inactive: 24.6%.

Turning to `COc1ccc(OP(C)(=O)Nc2ccc(SC(F)(F)F)cc2)cc1` (centres undefined), the inhibition is inactive: -10.4%.

As to `CCOC(=O)c1ccc(NP(C)(=O)Oc2ccc(F)cc2)cc1` (centres undefined), the inhibition is inactive: 16.1%.

As to `COc1ccc2c(c1O)-c1c(O)c(OC)cc3c1[C@H](C2)[N+](C)(C)CC3.O=[N+]([O-])c1cc([N+](=O)[O-])c([O-])c([N+](=O)[O-])c1[O-]`, the inhibition was inactive: 24.9%.

`O=C(OCCN1CCN(CCOCc2ccccc2)CC1)C(O)(c1ccccc1)c1ccccc1`: the inhibition was inactive: 4.94%.

On to `O=C(OC1CN2CCC1CC2)c1ccc([N+](=O)[O-])cc1` (centres undefined), for which the inhibition is inactive: 8.03%.

`CC(C)c1ccc(OP(C)(=O)Nc2ccc(SC(F)(F)F)cc2)cc1` (centres undefined): the inhibition is inactive: 0%.

Consider `CP(=O)(Nc1ccccc1F)Oc1ccccc1` (centres undefined), for which the inhibition was inactive: 1.22%.

For `O=[N+]([O-])c1cc([N+](=O)[O-])c(Nc2ccc(Cl)cc2)c([N+](=O)[O-])c1`, the inhibition was inactive: 24.8%.

On to `Cc1ccccc1NP(C)(=O)Nc1ccccc1C`, for which the inhibition is inactive: -2.24%.

Regarding `CP(=O)(Nc1ccc2c(c1)OCCO2)Oc1ccccc1` (centres undefined), the inhibition was inactive: -5.93%.

Turning to `CCOP(C)(=S)SCC(=O)NC(C)(CC)C(=O)O` (centres undefined), the inhibition is inactive: -7.1%.

Turning to `CP(=O)(Nc1ccc(SC(F)(F)F)cc1)Oc1ccc(F)cc1` (centres undefined), the inhibition was inactive: 3.21%.

In the case of `Cc1c(C(c2ccc3c(c2)OCO3)c2c(C)n(C)n(-c3ccccc3)c2=O)c(=O)n(-c2ccccc2)n1C.O=[N+]([O-])c1cc([N+](=O)[O-])c(O)c([N+](=O)[O-])c1`, the inhibition is inactive: 2.94%.

As to `O=[N+]([O-])c1cc([N+](=O)[O-])c(NCC2CCS(=O)(=O)C2)c([N+](=O)[O-])c1` (centres undefined), the inhibition is inactive: 24.7%.

Take `Cc1cc(-c2cccc3ccccc23)c(C)cn1.O=[N+]([O-])c1cc([N+](=O)[O-])c(O)c([N+](=O)[O-])c1`: the inhibition is inactive: 22.5%.

Turning to `O=[N+]([O-])c1ccc(OP2(=O)COCCO2)cc1` (centres undefined), the inhibition is inactive: -4.83%.

On to `COc1ccc(NP(C)(=O)Oc2ccccc2OC)cc1` (centres undefined), for which the inhibition is inactive: -3.18%.

For the compound `CN(C)CCOC(=O)C(O)(c1ccccc1)C1CCCCC1` (centres undefined), the inhibition was inactive: 7.6%.

With `COc1ccc(OP(C)(=O)Nc2cccc(Br)c2)cc1` (centres undefined), the inhibition is inactive: 0%.
